Literature values, collected in patent US6121315A, “Oral compositions containing a zinc compound” (priority 1999, dated 2000).

Conditions: 5% by weight in mineral oil, nine-person taste panel; cited from earlier work

For CC1CCC(C(C)C)C(OC(=O)CCC(=O)OC2CC(C)CCC2C(C)C)C1 (stereo not shown) [dimenthyl succinate], the taste and odor is listed as “odorless and tasteless”.
